Anti-infective test results gathered from many reports (values: NIAID ChemDB through PubChem).

All rows: whole-cell or culture tests; species: Mycobacterium tuberculosis

ECn: concentration that inhibits the pathogen or its effect by n%. Inhibition is in % at the dose shown (toxicity tests: loss of growth or viability). A number after MIC or MFC names an inhibition level or a share of isolates. Two numbers with a dash give a range or band. Conditions beyond the fields shown may differ between rows. MIC bound: limit read from a one-dose screen. An empty or dashed field is not shown.

compound,strain or isolate,mutations,method,measure,dose,value
CC(C)COC(=O)c1cnccn1,ATCC35801,-,-,MIC,-,4 µg/mL
CC(C)CCCC(C)CCS(=O)(=O)C[C@@H]1O[C@H](CO)[C@@H](O)[C@@H]1O,H37Rv,-,-,inhibition,6.25 µg/mL,20%
CO[C@H]1/C=C/O[C@@]2(C)Oc3c(C)c(O)c4c(O)c(c(/C=N/N5CCN(C)CC5)c(O)c4c3C2=O)NC(=O)/C(C)=C\C=C\[C@H](C)[C@H](O)[C@@H](C)[C@@H](O)[C@@H](C)[C@H](OC(C)=O)[C@@H]1C,H37Rv,-,-,MIC,-,0.5 µg/mL
CCSC(=N)N=Nc1ccc(O)cc1,H37Rv,-,BACTEC,inhibition,12.5 µg/mL,70%
Cc1ccc2nc(SCc3ccc(F)c(F)c3)[nH]c2c1,MY 332/88,-,-,MIC,-,32 µM
CC(C)(C)OCOC(=O)c1cnccn1,KK11-20,-,-,MIC,-,50 µg/mL
NC(=O)/C(=C\c1ccc(C(F)(F)F)cc1)n1nnc2ccccc21,H37Rv,-,-,EC50,-,>12.5 µg/mL
Cl.c1cnc2c(c1)-n1cccc1C1(CCCCC1)NN2,H37Rv,-,BACTEC,inhibition,12.5 µg/mL,0%
CCCCCCCCCCCCP(=O)([O-])C[C@@H]1O[C@H](CO)[C@@H](O)[C@@H]1O,H37Rv,-,-,inhibition,6.25 µg/mL,17%
CO[C@H]1/C=C/O[C@@]2(C)Oc3c(C)c(O)c4c(O)c(c(/C=N/N5CCCC(O)C5)c(O)c4c3C2=O)NC(=O)/C(C)=C\C=C\[C@H](C)[C@H](O)[C@@H](C)[C@@H](O)[C@@H](C)[C@H](OC(C)=O)[C@@H]1C,H37Rv,-,-,MIC,-,0.5 µg/mL
CCOC(=O)C1=C(NC)OC/C1=N/NC(=O)c1ccccc1O,H37Rv,-,BACTEC,inhibition,12.5 µg/mL,4%
COC(=O)C1=C(C)NC(Nc2cccc(Br)c2)=NC1c1ccc(Cl)cc1,H37Rv,-,agar,MIC,-,4 µg/mL
CCCCCCCCCCCCCCCOCCCCCCCCCCS(=O)(=O)C[C@@H]1O[C@H](CO)[C@@H](O)[C@@H]1O,H37Rv,-,-,inhibition,6.25 µg/mL,0%
Cc1ccc2nc(SCc3cccc(C(N)=S)c3)[nH]c2c1,MY 332/88,-,-,MIC,-,62 µM
CN(Cc1c[nH]c2ccc(Br)cc12)Cc1c[nH]c2ccc(Br)cc12,H37Ra,-,-,MIC,-,16 µg/mL
CC(C)(C)OC(=O)c1cnc(Cl)cn1,ATCC 35828,-,-,MIC,-,4 µg/mL
COC(=O)C1=C(C(=O)OC)P2(C)(C)N(C)C(=S)N2C1(c1ccccc1)c1ccccc1,H37Rv,-,BACTEC,MIC,-,≥12.5 µg/mL
Clc1cccc(CNCCc2c[nH]c3ccccc23)c1,H37Ra,-,-,MIC,-,32 µg/mL
COc1ccc(/C=C(\C#N)n2nnc3ccccc32)cc1OC,H37Rv,-,-,inhibition,12.5 µg/mL,0%
Clc1ccc(CNCc2c[nH]c3ccc(Br)cc23)cc1,H37Ra,-,-,MIC,-,8 µg/mL
N#C/C(=C\c1ccc(-c2ccccc2)cc1)n1nnc2ccccc21,H37Rv,-,-,inhibition,12.5 µg/mL,0%
C=CCN1C(=O)S/C(=C/c2ccccc2)C1=O,H37Rv,-,-,MIC,-,≥25 µg/mL
CCCCNC(=O)OCCN=c1c2ccccc2ccc2ccccc12,H37Rv,-,BACTEC,MIC bound,-,>12.5 µg/mL
N#Cc1c(-c2ccccc2)nc2sc(C3CCCCC3)nn12,H37Rv,-,BACTEC,inhibition,6.25 µg/mL,<90%
C[N+](C)(C)CC(=O)N/N=C(\Cc1nc2ccc(Cl)cc2[nH]c1=O)C1=Nc2cc(Cl)c(S(N)(=O)=O)cc2S(=O)(O)=N1.[Cl-],H37Rv,-,BACTEC,MIC bound,-,>12.5 µg/mL
O=C(O)/C(=C\c1ccc(Cl)cc1)n1nnc2ccccc21,H37Rv,-,-,EC50,-,>12.5 µg/mL
CCCCCCCCCCCCCCCCCCCCOP(=O)(O)C[C@@H]1O[C@H](CO)[C@@H](O)[C@@H]1O,H37Rv,-,-,MIC,-,18 µM
CCOc1ccc(N2C(=O)/C(=C/c3ccc(Cl)cc3Cl)S/C2=N\c2ccccn2)cc1,H37Rv,-,-,MIC,-,≥25 µg/mL
CCCCCCCCC(CC)OC(=O)c1cnc(Cl)cn1,ATCC 35828,-,-,MIC,-,1 µg/mL
CCCCCCCCCCS(=O)(=O)C[C@@H]1O[C@H](CO)[C@@H](O)[C@@H]1O,H37Rv,-,-,EC50,-,>6.25 µg/mL
Cc1ccc2nc(SCc3ccc(Br)cc3)[nH]c2c1,MY 332/88,-,-,MIC,-,32 µM
Clc1cc(Cl)cc(CNCc2c[nH]c3ccccc23)c1,H37Ra,-,-,MIC,-,16 µg/mL
Cc1cccc(CSc2nc3ccc(C)cc3[nH]2)c1,MY 332/88,-,-,MIC,-,62 µM
CCOc1ccc(N2C(=O)/C(=C/c3ccccc3OC)S/C2=N\c2ccccn2)cc1,H37Rv,-,-,MIC,-,≥25 µg/mL
NCc1c[nH]c2ccccc12,H37Ra,-,-,MIC,-,256 µg/mL
Cc1ncccc1Nc1cc2nc3ccccc3n(-c3ccc(Cl)cc3)c-2cc1=NC1CCOCC1,H37Rv,-,resazurin,MIC,-,0.03 µg/mL
O=C1CSC(c2c(-c3ccccc3)nc3sc(-c4ccco4)nn23)N1c1ccccc1,H37Rv,-,BACTEC,inhibition,6.25 µg/mL,<90%
C=CCN1C(=O)/C(=C/c2ccccc2O)S/C1=N\c1nc2ccccc2s1,H37Rv,-,-,MIC,-,≥25 µg/mL
NCCc1c[nH]c2ccccc12,H37Ra,-,-,MIC,-,256 µg/mL
CCCCCC(CC)OC(=O)c1cnc(Cl)cn1,ATCC 35828,-,-,MIC,-,0.25 µg/mL
Cc1ccc2nc(SCc3c(F)cccc3[N+](=O)[O-])[nH]c2c1,MY 332/88,-,-,MIC,-,125 µM
Brc1ccc(-c2nc3sc(C4CCCCC4)nn3c2CC2CCOCC2)cc1,H37Rv,-,BACTEC,inhibition,6.25 µg/mL,<90%
C[N+]12CN3CN(C1)S(=O)(=O)N(C3)C2.[I-],H37Rv,-,BACTEC,inhibition,12.5 µg/mL,19%
N#C/C(=C\c1ccc[nH]1)n1nc2ccccc2n1,H37Rv,-,-,inhibition,12.5 µg/mL,35%
CCOc1ccc(N2C(=O)/C(=C/c3cccnc3)S/C2=N\c2ccccn2)cc1,H37Rv,-,-,MIC,-,≥25 µg/mL
CCCCC(=O)OC[n+]1ccc2c(C)c3[nH]c4ccccc4c3c(C)c2c1,H37Rv,-,resazurin,inhibition,6.25 µg/mL,64%
COc1ccc(CSc2nc3ccc(C)cc3[nH]2)cc1,MY 332/88,-,-,MIC,-,32 µM
CN(C)C1C(=O)C(C(=O)NP(=O)(NCCCO)N(CCCl)CCCl)=C(O)C2(O)C(=O)C3=C(O)c4c(O)cccc4C(C)(O)C3CC12,H37Rv,-,BACTEC,MIC bound,-,≤12.5 µg/mL
CN[C@H](CC(C)C)C(=O)N[C@H]1C(=O)N[C@@H](CC(N)=O)C(=O)N[C@H]2C(=O)N[C@H]3C(=O)N[C@H](C(=O)N[C@H](C(=O)O)c4cc(O)cc(O)c4-c4cc3ccc4O)[C@H](O)c3ccc(c(Cl)c3)Oc3cc2cc(c3O[C@@H]2O[C@H](CO)[C@@H](O)[C@H](O)[C@H]2O[C@H]2C[C@](C)(N)[C@H](O)[C@H](C)O2)Oc2ccc(cc2Cl)[C@H]1O,H37Rv,-,broth dilution / agar,MIC,-,40 µg/mL
O=C1NC(Cc2ccccc2)C(=O)NC1Cc1ccccc1,H37Rv,-,BACTEC,MIC bound,-,>12.5 µg/mL
Cc1ccc2[nH]c3cc(C#N)c(=O)oc3c2c1,18b,Streptomycin-starved,resazurin,MIC99,-,0.4 µg/mL
CO[C@@H]1[C@@H](O[C@@H]2O[C@H](C)[C@@H](O[C@H]3C[C@@](C)(O)[C@@H](OC(=O)CC(C)C)[C@H](C)O3)[C@H](N(C)C)[C@H]2O)[C@@H](CC=O)C[C@@H](C)[C@@H](O)/C=C/C=C/C[C@@H](C)OC(=O)C[C@H]1OC(C)=O,H37Rv,-,BACTEC,inhibition,12.8 µg/mL,26%
CC(C)=CCC[C@H](C)[C@H]1CC[C@H](C)c2c1cc(C)c1ncoc21,-,-,-,EC50,-,<12.5 µg/mL
CCCCCCCC(OC(=O)c1cnc(Cl)cn1)C(C)(C)C,ATCC 27294,-,-,MIC,-,4 µg/mL
CO[C@H]1/C=C/O[C@@]2(C)Oc3c(C)c(O)c4c(O)c(c(/C=N/N(C)C)c(O)c4c3C2=O)NC(=O)/C(C)=C\C=C\[C@H](C)[C@H](O)[C@@H](C)[C@@H](O)[C@@H](C)[C@H](OC(C)=O)[C@@H]1C,H37Rv,-,-,MIC,-,0.05 µg/mL
CC(=O)N=C1N(/C=C2/C(=O)Oc3ccccc3C2=O)C(=O)/C(=C\c2ccc3c(c2)OCO3)N1C,H37Rv,-,BACTEC,inhibition,12.5 µg/mL,0%
CC1(C)S[C@@H]2[C@H](NC(=O)[C@H](N)c3ccccc3)C(=O)N2[C@H]1C(=O)O,H37Rv,-,resazurin,MIC90,-,160 µg/mL
CC1COc2c(N3CCN(C)CC3)c(F)cc3c(=O)c(C(=O)O)cn1c23,25 strains,-,-,MIC90,-,0.78 µg/mL
CN1c2ccc(Cl)cc2C(=O)NC1c1ccc([N+](=O)[O-])s1,H37Rv,-,resazurin,inhibition,6.25 µg/mL,25%
C=CCN1C(=O)/C(=C/c2cccc(O)c2)S/C1=N\c1nc2ccccc2s1,H37Rv,-,-,MIC,-,≥25 µg/mL
N#C/C(=C/c1cccc2ccccc12)n1nnc2ccccc21,H37Rv,-,-,inhibition,12.5 µg/mL,10%
Cc1[nH]c2ccccc2c1C(C[N+](=O)[O-])C[N+](=O)[O-],H37Ra,-,-,MIC,-,64 µg/mL
CCCCCCCCCCCCCC1=C(O)c2ncccc2C(=O)C1=O,H37Rv,-,resazurin,MIC bound,-,>6.25 µg/mL
CO[C@H]1/C=C/O[C@@]2(C)Oc3c(C)c(O)c4c(O)c(c(/C=N/N5CCOCC5)c(O)c4c3C2=O)NC(=O)/C(C)=C\C=C\[C@H](C)[C@H](O)[C@@H](C)[C@@H](O)[C@@H](C)[C@H](OC(C)=O)[C@@H]1C,H37Rv,-,-,MIC,-,0.2 µg/mL
COC(=O)C1C(O)C(C)C(OC(C)=O)C(C)/C=C\C=C(/C)C(=O)Nc2c(C)c(OC(C)=O)c3c(c2O)C(=O)C(C)=C2OCOC(=C23)/C(C)=C/C(C)(O)C(O)C(C)C1O,PAS-R,-,-,MIC,-,12.5 µg/mL
NC(=O)/C(=C\c1ccccc1)n1nnc2ccccc21,H37Rv,-,-,inhibition,12.5 µg/mL,0%
Fc1ccc(CNCCc2c[nH]c3ccccc23)c(F)c1,H37Ra,-,-,MIC,-,64 µg/mL
CCOc1ccc(Nc2nc(C)c(C(=O)/C=C/c3ccc(Cl)cc3Cl)s2)cc1,H37Rv,-,resazurin,MIC bound,-,>6.25 µg/mL
NC(=O)/C(=C\c1ccc(Br)cc1)n1nnc2ccccc21,H37Rv,-,-,EC50,-,>12.5 µg/mL
Cc1ccc2nc(SCc3cccc(C#N)c3)[nH]c2c1,MY 332/88,-,-,MIC,-,62 µM
Clc1ccc(CNCCc2c[nH]c3ccccc23)c(Cl)c1,H37Ra,-,-,MIC,-,32 µg/mL
C[C@H]1CCC/C=C/[C@@H]2C[C@H](O)C[C@H]2[C@@H](O)/C=C/C(=O)O1,H37Rv,-,BACTEC,MIC,-,≥12.8 µg/mL
OCc1c(-c2ccccc2)nc2sc(-c3cccs3)nn12,H37Rv,-,BACTEC,inhibition,6.25 µg/mL,<90%
CCCCCCCCCCCCCCCCP(=O)([O-])C[C@@H]1O[C@H](CO)[C@@H](O)[C@@H]1O,H37Rv,-,-,EC50,-,>6.25 µg/mL
N#Cc1cc2[nH]c3ccc([N+](=O)[O-])cc3c2oc1=O,H37Rv,-,resazurin,MIC99,-,25 µg/mL
NNC(=O)c1ccncc1,17 strains,-,-,MIC,-,0.025–0.05 µg/mL
O=S1OCC#CCOS(=O)OCC#CCO1,H37Rv,-,BACTEC,MIC,-,≥12.5 µg/mL
COC1CCC(N=c2cc3n(-c4ccc(Cl)cc4)c4ccccc4nc-3cc2Nc2cccnc2C)CC1,H37Rv,-,resazurin,MIC,-,0.016 µg/mL
CCOC(=O)c1csc(-c2csc(CCNC(=O)c3ccccc3)n2)n1,H37Rv,-,BACTEC,MIC bound,-,>12.8 µg/mL
CCCCCCCCOC(=O)c1cnccn1,KK11-20,-,-,MBC,-,>200 µg/mL
COC(=O)c1c(/C(=N\Nc2ccc([N+](=O)[O-])cc2)[N+](=O)[O-])ssc1=N,H37Rv,-,BACTEC,MIC bound,-,>12.5 µg/mL
N#Cc1c(-c2ccccc2)nc2sc(-c3cccs3)nn12,H37Rv,-,BACTEC,inhibition,6.25 µg/mL,<90%

The last 10 rows once more:

compound,strain or isolate,mutations,method,measure,dose,value
OCc1c(-c2ccccc2)nc2sc(-c3cccs3)nn12,H37Rv,-,BACTEC,inhibition,6.25 µg/mL,<90%
CCCCCCCCCCCCCCCCP(=O)([O-])C[C@@H]1O[C@H](CO)[C@@H](O)[C@@H]1O,H37Rv,-,-,EC50,-,>6.25 µg/mL
N#Cc1cc2[nH]c3ccc([N+](=O)[O-])cc3c2oc1=O,H37Rv,-,resazurin,MIC99,-,25 µg/mL
NNC(=O)c1ccncc1,17 strains,-,-,MIC,-,0.025–0.05 µg/mL
O=S1OCC#CCOS(=O)OCC#CCO1,H37Rv,-,BACTEC,MIC,-,≥12.5 µg/mL
COC1CCC(N=c2cc3n(-c4ccc(Cl)cc4)c4ccccc4nc-3cc2Nc2cccnc2C)CC1,H37Rv,-,resazurin,MIC,-,0.016 µg/mL
CCOC(=O)c1csc(-c2csc(CCNC(=O)c3ccccc3)n2)n1,H37Rv,-,BACTEC,MIC bound,-,>12.8 µg/mL
CCCCCCCCOC(=O)c1cnccn1,KK11-20,-,-,MBC,-,>200 µg/mL
COC(=O)c1c(/C(=N\Nc2ccc([N+](=O)[O-])cc2)[N+](=O)[O-])ssc1=N,H37Rv,-,BACTEC,MIC bound,-,>12.5 µg/mL
N#Cc1c(-c2ccccc2)nc2sc(-c3cccs3)nn12,H37Rv,-,BACTEC,inhibition,6.25 µg/mL,<90%